Data taken from patent US20020151568A1, “Piperidinylethyl-, phenoxyethyl-, and beta-fluorophenethyl-substituted thiourea compounds with potent anti-HIV activity” (priority 2000, published 2002).

Legend:
Assay type in all cases: cell-based
[1] = test system: HIV-1 strain HTLVIIIB; experiment: Inhibition of HIV-1 HTLVIIIB replication in PBMC (p24 antigen EIA)
Method: The cells were then infected with virus at a multiplicity of infection (MOI) of 0.1 during a one-hour adsorption period at 37° C. in a humidified 5% CO2 atmosphere. Subsequently, cells were cultured in 96-well microplates (100 μL/well; 2×10^6 cells/mL, triplicate wells) in the presence of various inhibitor concentrations. […] Ag. […] The applied p24 EIA was the unmodified kinetic assay commercially available from Coulter Corporation/Immunotech, Inc. (Westbrook, Me.).
To test the therapeutic activity of the compounds of the invention, p24 assays were utilized as previously described. […] 1 during a one-hour adsorption period at 37° C. in a humidified 5% CO2 atmosphere. Subsequently, cells were cultured in 96-well microliter plates ([…]; 2×10^6 cells/mL, triplicate wells) in the presence of various inhibitor concentrations. Aliquots of culture supernatants were removed from the wells on the 7th day after infection for p24 antigen p24 enzyme immunoassays (EIA).
The applied p24 EIA was the unmodified kinetic assay commercially available from Coulter Corporation/Immunotech, Inc. (Westbrooke, Me.), which utilizes a murine monoclonal antibody to HIV core protein coated onto microwell strips to which the antigen present in the test culture supernatant samples binds. Percent inhibition of viral replication was calculated by comparing the p24 values from the test substance treated infected cells with p24 values from untreated infected cells (i.e., virus controls).

[2] = test system: HIV-1 strain A17 (Y181C); experiment: Inhibition of replication of NNI-resistant HIV-1 strain A17 in PBMC
Method: (§1) The ability of Compounds 4 (HI-516), 11 (HI-566), and 12 (HI-565) to inhibit the replication of NNI-resistant HIV-1 strains, A17 (Y181C) and RT-MDR (V106A), was analyzed. The anti-HIV activity of the compounds was measured by determining their ability to inhibit the replication of HIV-1 strains A17 in PBMC from healthy volunteer donors and RT-MDR in H9 cells.
(§2) Compounds 4, 11, and 12 were compared with nevirapine or delavirdine, two known non-nucleoside reverse transcriptase inhibitors of HIV-1 RT.

[3] = test system: HIV-1 strain RT-MDR (V106A); experiment: Inhibition of replication of NNI-resistant HIV-1 strain RT-MDR in H9 cells
Method: as §1, §2

Row | Structure (SMILES) | SI (selectivity index = IC50 MTA / IC50 p24) [1] | fold more potent than delavirdine [2] [fold] | fold more potent than nevirapine [2] [fold] | fold more potent than delavirdine [3] [fold] | fold more potent than nevirapine [3] [fold]
1 | S=C(NCCOc1ccccc1)Nc1ccc(Br)cn1 [Compound 10, N-[2-(Phenoxy)ethyl]-N′-[2-(5-bromopyridyl)] thiourea] | 18,400 |  |  |  | 
2 | FC(CNC(=S)Nc1ccc(Cl)cn1)c1ccccc1 (stereo not drawn) [Compound 11, β-Fluoro[2-phenethyl]-N′-[2-(5-chloropyridyl)] thiourea] |  | 500 | 200 | 4 | 14
3 | FC(CNC(=S)Nc1ccc(Br)cn1)c1ccccc1 (stereo not drawn) [Compound 12, β-Fluoro[2-phenethyl]-N′-[2-(5-bromopyridyl)]thiourea] |  | 500 | 200 | 2 | 7
4 | S=C(NCCOc1ccccc1)Nc1ccc(Cl)cn1 [Compound 9, N-[2-(Phenoxy)ethyl]-N′-[2-(5-chloropyridyl)]thiourea] | >25,000 |  |  |  | 
5 | S=C(NCCOc1ccccc1)Nc1ccccn1 [Compound 8, N-[2-(Phenoxy)ethyl]-N′-[2-(pyridyl)]thiourea] | 1,100 |  |  |  | 
